Results deposited as PubChem BioAssay AID1259414 (Drosophila RNAi Screening Center, 2018).

Test: 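Genome-wide screen for host control of endosymbiont load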 (primary screen)
System: Drosophila JW18 cells infected with Wolbachia
Knock-down reagent: long dsRNA against Drosophila genes, 0.25 µg dsRNA per well of a 384-well plate
Duration: 5 days
Treatment: cells persistently infected with Wolbachia before knock-down; no added drug
Read-out: 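Imaged fluorescence in situ signal for Wolbachia 23S rRNA per DAPI-counted host cell, given as a robust z-score within each plate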
Scale: Wolbachia per cell robust z: higher = more Wolbachia per host cell than the plate typical
Active means: 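Hit when robust z is 1.5 or more, or -1.5 or less, in at least two of three replicates; excludes dsRNAs with several or no targets, genes not expressed in JW18 and well A1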
The screen tested about 24,000 reagents; shown is an unselected part of those that have a named target and a result. In the full data, about 1,210 (5%) got an active call. 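Inactive calls also include excluded dsRNAs with several or no targets, genes unexpressed in JW18, and well A1, regardless of score.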 Reagent sequences are not shown.

Gene | amplicon | Wolbachia per cell robust z, rep 1 | Wolbachia per cell robust z, rep 2 | Wolbachia per cell robust z, rep 3 | call
Svil (Supervillin) | DRSC08187 | -0.107 | -1.17 | 1.37 | inactive
Svil (Supervillin) | DRSC08296 | -6.65 | -0.0309 | -0.779 | inactive
Svil (Supervillin) | DRSC08332 | -3.1 | 0.519 | -0.0108 | inactive
Svil (Supervillin) | DRSC08334 | -0.0605 | -0.275 | 0.968 | inactive
Svil (Supervillin) | DRSC08494 | -1.47 | -0.448 | -2.75 | inactive
Svil (Supervillin) | DRSC08495 | -1.3 | 0.319 | 0.272 | inactive
Svil (Supervillin) | DRSC24435 | 0.761 | 1.83 | 2.9 | active
Svil (Supervillin) | DRSC25804 | 0.333 | 0.914 | 0.443 | inactive
Svil (Supervillin) | DRSC28906 | 0.559 | 1.83 | 0.996 | inactive
CG30431 | DRSC04902 | -5.57 | 0.354 | 0.258 | inactive
CG30431 | DRSC04904 | -0.536 | -0.301 | -0.437 | inactive
Lcp65Ac | DRSC11210 | 0.199 | 0.685 | -3.31 | inactive
Lcp65Ac | DRSC23931 | 0.229 | -0.321 | -1.24 | inactive
gskt (gasket) | DRSC14056 | -1.92 | -1.3 | -0.915 | inactive
gskt (gasket) | DRSC25861 | 0.275 | 0.81 | 0.595 | inactive
CG7069 | DRSC16188 | 1.06 | 1.34 | 1.99 | inactive
CG42288 | DRSC06381 | -0.319 | -0.566 | 0.107 | inactive
CG42288 | DRSC26648 | -0.816 | 0.869 | -1.22 | inactive
CG42288 | DRSC39028 | -0.606 | 0.409 | 0.405 | inactive
Osi18 (Osiris 18) | DRSC12181 | 1.27 | 0.241 | -0.588 | inactive
NANS (N-acetylneuraminic acid synthase) | DRSC15743 | -1.46 | -3.03 | -4.81 | inactive
NANS (N-acetylneuraminic acid synthase) | DRSC27626 | -1.33 | -0.422 | 0.696 | inactive
CG9135 | DRSC03144 | -0.724 | -0.117 | -2.29 | inactive
pps (protein partner of snf) | DRSC16057 | -0.675 | -1.22 | -1.12 | inactive
pps (protein partner of snf) | DRSC23652 | 1.92 | -0.497 | 1.05 | inactive
pps (protein partner of snf) | DRSC26594 | -0.654 | 1.17 | 0.105 | inactive
Npc1b (Niemann-Pick type C-1b) | DRSC20488 | -2.03 | -1.33 | -2.15 | inactive
Tsf3 (Transferrin 3) | DRSC06849 | -1.29 | 0.761 | -0.16 | inactive

3 entries already listed, arranged by “Wolbachia per cell robust z, rep 2”, ascending:
Gene | amplicon | Wolbachia per cell robust z, rep 1 | Wolbachia per cell robust z, rep 2 | Wolbachia per cell robust z, rep 3 | call
NANS (N-acetylneuraminic acid synthase) | DRSC15743 | -1.46 | -3.03 | -4.81 | inactive
NANS (N-acetylneuraminic acid synthase) | DRSC27626 | -1.33 | -0.422 | 0.696 | inactive
Osi18 (Osiris 18) | DRSC12181 | 1.27 | 0.241 | -0.588 | inactive
